Pooled drug test results. Numbers come from NIAID ChemDB, via PubChem.

Shared fields: tests in culture; organism: Candida albicans; measure: MIC

a–b is a range or a potency band. Conditions beyond the fields shown may differ between rows. Blank or dashed fields: not listed here.

| structure | strain | read by | value |
|---|---|---|---|
| CCCCCCOc1cc(O)cc(C(=O)O)c1 | Clinical isolates | - | 125–250 µg/mL |
| Cc1ccc(C2c3c(nc(=O)[nH]c3N)Oc3c2c(C)nn3-c2ccccc2)cc1 | MTCC 227 | - | 1000 µg/mL |
| C[C@H]1[C@H](O)[C@@H](C)/C=C/C=C/C=C/C=C/C=C/C=C/C=C/[C@H](O[C@@H]2O[C@H](C)[C@@H](O)[C@H](N)[C@@H]2O)C[C@@H]2O[C@](O)(C[C@@H](O)C[C@@H](O)CC[C@H](O)[C@@H](O)C[C@@H](O)CC(=O)O[C@H]1C)C[C@H](O)[C@H]2C(=O)O | ATCC28838 | - | 1.56 µg/mL |
| CCCCOc1cc(O)cc(C(=O)O)c1 | Clinical isolates | - | 125–250 µg/mL |
| COc1ccc(C2c3c(nc(=O)[nH]c3N)Oc3c2c(C)nn3-c2ccccc2)cc1 | MTCC 227 | - | 250 µg/mL |
| OC(Cn1cncn1)(Cn1cncn1)c1ccc(F)cc1F | E81022 | - | 0.39 µg/mL |
| Cc1nn(-c2ccccc2)c2c1C(c1cccc(Cl)c1)c1c(nc(=O)[nH]c1N)O2 | MTCC 227 | - | 1000 µg/mL |
| C=C1CC[C@H]2C[C@@H]1C2(C)C | ATCC 10231 | agar diffusion / agar | >20000 µg/mL |
| Nc1[nH]c(=O)ncc1F | 2913 | - | 0.25 µg/mL |
| CN1O[C@H](c2cccc([N+](=O)[O-])c2)CC1(Cn1ccnc1)c1ccco1 | ATCC26232 | - | >20 µg/mL |
| Cn1nc2c(=O)n(-c3ccccc3)nc(-c3ccccc3)c2c1-c1ccccc1 | ATCC 27541 | - | 0.62 µg/mL |
| c1ccc(Cc2nc(CN3CCc4sccc4C3)n[nH]2)cc1 | NCIM371 | agar | 100 µg/mL |
| C/C(=N\NC([S-])=Nc1ccccc1F)c1ccccn1.CCC[CH2][Sn+3] | ATCC 18804 | broth dilution | 7.49 µM |
| CC1=CC[C@H]2C[C@@H]1C2(C)C | ATCC 10231 | agar diffusion / agar | 3125 µg/mL |
| COC(=O)/C=C/c1ccccc1 | - | broth dilution / resazurin | 1000 µg/mL |
| CCn1c2c(c3ccccc31)C(=O)c1cc(C)cnc1C2=O | - | - | >200 µg/mL |
| Cn1nc2c(=O)[nH]nc(-c3ccccc3)c2c1-c1ccccc1 | ATCC 27541 | - | >0.62 µg/mL |
| CCOC1Oc2ccc(C)cc2C(=O)/C1=C\Nc1ccc(C(=O)O)c(O)c1 | - | - | 10 µg/mL |
| COc1cc(OCc2ccccc2)ccc1C(=O)O | Clinical isolates | - | 125–250 µg/mL |
| COc1cc2c(cc1OC)-c1cc3ccc(OC)c(OC)c3c[n+]1CC2 | ATCC 10231 | - | >500 µg/mL |
| Nc1ccc(S(=O)(=O)Nc2nnc(S(N)(=O)=O)s2)cc1 | C316 | - | >100 µg/mL |
| Cc1ccc2c(c1)nc1c(CN)c(-c3c(-c4ccc(Br)cc4)[nH]c4ccccc34)c(CN)c(N)n12 | MTCC 227 | broth dilution | 500 µg/mL |
| CC(C)N=C(N)c1ccc2nc(-c3ccc4c(c3)Cc3cc(-c5nc6ccc(C(N)=NC(C)C)cc6[nH]5)ccc3-4)[nH]c2c1 | Isolate CA783 | - | 1.56 µg/mL |
| Clc1ccc(-c2n[nH]c(CN3CCc4sccc4C3)n2)cc1 | NCIM371 | agar | 25 µg/mL |
| Cc1ccccc1S(=O)(=O)NC(=O)Nc1ccc(S(=O)(=O)Nc2nnc(S(N)(=O)=O)s2)cc1 | C316 | - | 82 µg/mL |
| NCc1c(-c2c(-c3ccc(Cl)cc3)[nH]c3ccccc23)c(CN)c2nc3ccccc3n2c1N | MTCC 227 | broth dilution | 1000 µg/mL |
| C/C(=N\NC([S-])=Nc1ccccc1Cl)c1ccccn1.CCC[CH2][Sn+3] | ATCC 18804 | broth dilution | 29.06 µM |
| Clc1cccc(-c2n[nH]c(CN3CCc4sccc4C3)n2)c1 | NCIM371 | agar | 50 µg/mL |
| Cn1nc2c(=O)n(-c3c(Cl)cc(Cl)cc3Cl)nc(-c3ccccc3)c2c1-c1ccccc1 | ATCC 27541 | - | <0.0024 µg/mL |
| CCOC(=O)c1nc2ccccc2nc1Nc1cc(OC)c(OC)c(OC)c1 | - | - | 1.9 µg/mL |
| CN1O[C@H](COc2ccc(Cl)cc2)CC1(Cn1ccnc1)c1ccco1 | ATCC26232 | - | 20 µg/mL |
| Cn1nc2c(N)nnc(-c3ccccc3)c2c1-c1ccccc1 | ATCC 27541 | - | >0.62 µg/mL |
| NS(=O)(=O)c1nnc(NS(=O)(=O)c2ccc(NC(=O)NS(=O)(=O)c3ccc(F)cc3)cc2)s1 | C316 | - | >100 µg/mL |
| CCC[CH2][Sn+3].[S-]C(=Nc1ccccc1Cl)N/N=C(\c1ccccc1)c1ccccn1 | ATCC 18804 | broth dilution | 26.12 µM |
| NNC(=O)c1ccc(OCc2ccccc2)cc1O | Clinical isolates | - | 125–250 µg/mL |
| Clc1ccccc1-c1n[nH]c(CN2CCc3sccc3C2)n1 | NCIM371 | agar | 50 µg/mL |
| Cc1ccc2c(c1)nc1c(CN)c(-c3c(-c4ccc([N+](=O)[O-])cc4)[nH]c4ccccc34)c(CN)c(N)n12 | MTCC 227 | broth dilution | 1000 µg/mL |
| CN1O[C@H](c2ccc(Cl)cc2)CC1(Cn1ccnc1)c1ccco1 | ATCC26232 | - | 20 µg/mL |
| COc1c(O)c2c(=O)cc(OC)c3c4c(OC)cc(=O)c5c(O)c(OC)c6c(c(c1CC(C)(O)C6C(C)=O)c23)c54 | - | - | 1.41 µg/mL |
| C[C@H]1[C@H]2CC[C@H]3[C@@H]4CC=C5C[C@@H](N(C)C)CC[C@]5(C)[C@H]4CC[C@]23CN1C | ATCC 14053 | - | 31–62 µg/mL |
| CCCCCCOc1ccc(C(=O)O)c(O)c1 | Clinical isolates | - | 125–250 µg/mL |
| c1ccc(C(c2ccccc2)c2n[nH]c(CN3CCc4sccc4C3)n2)cc1 | NCIM371 | agar | 100 µg/mL |
| COc1cc2nccc3c4ccccc4n(c1=O)c23 | - | - | 190.3 µM |

Again, the opening 4 rows:

structure | strain | read by | value
CCCCCCOc1cc(O)cc(C(=O)O)c1 | Clinical isolates | - | 125–250 µg/mL
Cc1ccc(C2c3c(nc(=O)[nH]c3N)Oc3c2c(C)nn3-c2ccccc2)cc1 | MTCC 227 | - | 1000 µg/mL
C[C@H]1[C@H](O)[C@@H](C)/C=C/C=C/C=C/C=C/C=C/C=C/C=C/[C@H](O[C@@H]2O[C@H](C)[C@@H](O)[C@H](N)[C@@H]2O)C[C@@H]2O[C@](O)(C[C@@H](O)C[C@@H](O)CC[C@H](O)[C@@H](O)C[C@@H](O)CC(=O)O[C@H]1C)C[C@H](O)[C@H]2C(=O)O | ATCC28838 | - | 1.56 µg/mL
CCCCOc1cc(O)cc(C(=O)O)c1 | Clinical isolates | - | 125–250 µg/mL